How the values were obtained:
[1] = tested on: HIV, chronically infected cells; assay: Virus Resistance Studies; type: cell-based; conditions: after 20 months
HIV = type: cell-based

SMILES: c1ccc2[nH]c(-c3cscn3)nc2c1 [thiabendazole, 2-(4-thiazolyl)-1-H-benzimidazole]
- development of resistant virus strains [1]: no resistant virus strains
- therapeutic index (TI), ratio of toxic dose to efficacious dose (HIV): 2.8

From patent US6362207B1, “Methods of treating viral infections with benzimidazoles” (priority 1995, dated 2002)
